According to patent US20170145472A1, “METHOD OF DETECTING HELICASE ACTIVITY” (University of Macau, priority 2015, published 2017):

Test: Direct quenching control on complex 9 or the complex 9+G-quadruplex ensemble
Details: 10 μM of suramin or TBBT

SMILES: Brc1c(Br)c(Br)c2n[nH]nc2c1Br [TBBT, reference compound]
- direct quenching effect on complex 9 or the complex 9+G-quadruplex ensemble: not having a direct quenching effect
